Compound potency records, mixed from different reports. Data source: NIAID ChemDB in PubChem.

Shared fields: toxicity to cultured cells; measure: CC50

CCn is the concentration with n% toxicity to the cells. Rows are shuffled and stem from different studies. Blank or dashed fields: not listed here.

| compound | cells | method | value |
|---|---|---|---|
| O=C(/C=C/c1ccco1)O/N=C1\c2ccccc2-c2c1c(N1CCN(c3ccccn3)CC1)nc1ccc(Br)cc21 | U-937 | MTT | >10 µg/mL |
| O=c1[nH]c(=O)n([C@H]2C[C@H](O)[C@@H](CO)O2)cc1I | CBMC | MTT | 170 µM |
| CC(=O)c1c(O)c(C)c(O)c2c1OC1=CC(=O)/C(=C(/C)NNC(=O)c3ccccc3)C(=O)[C@@]12C | L6 | resazurin | 21.06 µM |
| OC[C@@H]1C[C@@H](O)[C@H](n2cnc3c(NC4CCCCC4)nc(Cl)cc32)O1 | Sheep chondrocytes G81092 |  | 270 µM |
| CSC(=S)N/N=C(/C)c1cccs1 | VERO |  | 3.4 µg/mL |
| O=c1[nH]cnc(N2CC[N+]3(CC2)CC[N+]2(CCN(c4nc[nH]c(=O)c4[N+](=O)[O-])CC2)CC3)c1[N+](=O)[O-] | GMK |  | >869 µg/mL |
| OC[C@@H]1C[C@@H](O)[C@H](n2cnc3c(NC4CCCCCC4)cc(Cl)nc32)O1 | Sheep chondrocytes G81092 |  | 145 µM |
| Cc1cc(=O)n(CCOCP(=O)(O)O)c(N)n1 | L1210 |  | <10 µM |
| O=[N+]([O-])c1c(N2CCCC2)ncnc1N1CC[N+]2(CC1)CC[N+]1(CCN(c3ncnc(N4CCCC4)c3[N+](=O)[O-])CC1)CC2 | K562 |  | >293.4 µg/mL |
| Cc1ccnc2c1NC(=O)c1cccnc1N2C1CC1 | 293T |  | >10 µM |
| CSc1nc(N)cc(OCCOCP(=O)(O)O)n1 | HeLa S3 |  | <10 µM |
| Cc1cn(CCOCP(=O)(O)O)c(=O)[nH]c1=O | HB611 |  | >200 µM |
| CC[C@@]1(O)C(=O)OCc2c1cc1n(c2=O)Cc2cc3ccccc3nc2-1 | MDA-MB-231 | MTT | 0.759 µg/mL |
| NC(=O)c1ncn([C@@H]2O[C@H](CO)[C@@H](O)[C@H]2O)n1 | LLC-MK2 | MTT / neutral red | 65 µg/mL |
| Nc1ccnc2c1ncn2CCOCP(=O)(O)O | HB611 |  | 261 µM |
| CCCC[N+](CCCC)=c1ccc2nc3c(C)cc(N(CC)CC)cc3sc-2c1 | VERO |  | <0.26 µg/mL |
| O=C(Nc1ccc(C(F)(F)F)cc1)NC1N=C(c2ccccc2)c2ccccc2NC1=O | HEP-2 |  | 4 µM |
| O=[N+]([O-])c1ccc(N2CC[N+]3(CC2)CC[N+]2(CCN(c4ccc([N+](=O)[O-])c5nonc45)CC2)CC3)c2nonc12 | GMK |  | >320.8 µg/mL |
| O=C(NC1N=C(c2ccccc2)c2ccccc2NC1=O)c1ccccc1I | HEP-2 |  | 8.3 µM |
| Nc1ccn(C[C@@H](CO)OCP(=O)(O)O)c(=O)n1 | CBMC | MTT | 181 µM |
| Cc1cc(OCCOCP(=O)(O)O)nc(N)n1 | CCRF-CEM |  | <10 µM |
| OC(c1cc(-c2ccccc2)nc2c(Cl)cc(Cl)cc12)C1CCCCN1 | VERO |  | 1.42 µg/mL |
| CC(C)=CCC/C(C)=C/CC/C(C)=C/CC/C(C)=C/Cc1cc(O)cc2c1OC(=O)C2 | C8166 | MTT | 5.12 µM |
| Nc1ncnc2c1ncn2CCOCP(=O)(O)O | CBMC | MTT | 39 µM |
| c1ccc2c(c1)ccc1c2nc2c3ccccc3[nH]n12 | VERO |  | 3.2 µg/mL |
| Cc1cn([C@H]2C[C@H](F)[C@@H](CO)O2)c(=O)[nH]c1=O | BFU-E |  | 1 µM |
| COC(=O)CCC(=O)O[C@H]1C[C@@H]2c3c(cc(OC)c4c5c(c(=O)oc34)C(=O)CC5)O[C@@H]2O1 | L-02 |  | 4.2 µM |
| COc1ccc(C=C2C=C(C(C)(C)C)C(=O)C(C(C)(C)C)=C2)cc1 | VERO |  | 3 µg/mL |
| CC(=O)OC1(C)c2ccccc2-c2c1c(-n1ccnc1)nc1ccc(Br)cc21 | U-937 | MTT | >10 µg/mL |
| COc1ccc(/C=C/C(=O)O)cc1OC | C8166 | MTT | 137 µM |
| OC[C@H]1O[C@@H](n2cnc3c(NC4CCCCCC4)ncnc32)[C@H](O)[C@@H]1O | Sheep chondrocytes G81092 |  | 126 µM |
| Nc1nc2c(ncn2CCOCP(=O)(O)O)c(=O)[nH]1 | HB611 |  | 6.3 µM |
| Nc1nc2c(ncn2CCOCP(=O)(O)O)c(=O)[nH]1 | CBMC | MTT | 6 µM |
| CC(=O)c1c(O)c(C)c(O)c2c1OC1=CC(=O)/C(=C(/C)N[C@@H](Cc3cnc[nH]3)C(=O)O)C(=O)[C@@]12C | L6 | resazurin | 67.36 µM |
| OC[C@@H]1CC[C@H](n2cnc3c(NC4CCCCCC4)ncnc32)O1 | Sheep chondrocytes G81092 | MTT | 308 µM |
| COc1cc(S(C)(=O)=O)ccc1C(=O)NC1N=C(c2ccccc2)c2ccccc2NC1=O | HEP-2 |  | 2.4 µM |
| COC(=O)C(=O)C(C(=O)C1=NS(=O)(O)=c2cc(S(N)(=O)=O)c(Cl)cc2=N1)c1nc2ccc(C(=O)c3ccccc3)cc2[nH]c1=O | VERO |  | 35.9 µg/mL |
| CN(C)c1cc(=O)n(CCOCP(=O)(O)O)c(N)n1 | HeLa S3 |  | <10 µM |
| O=c1cc(-c2ccc(Oc3c(O)cc4oc(-c5ccc(O)cc5)cc(=O)c4c3O)cc2)oc2cc(O)cc(O)c12 | MA-104 | visual reading | 1 µg/mL |
| CC(=O)c1c(O)c(C)c(O)c2c1OC1=CC(=O)/C(=C(/C)N[C@@H](Cc3ccc(O)cc3)C(=O)O)C(=O)[C@@]12C | L6 | resazurin | 23.51 µM |
| Nc1ncnc2c1ncn2C[C@H]1COP(=O)(O)CO1 | HSB-2 | MTT | 242 µM |
| O=C(O)c1[nH]c(=O)[nH]c(=O)c1F | VERO |  | <4.12 µg/mL |
| CC(=O)c1c(O)c(C)c(O)c2c1OC1=CC(=O)/C(=C(/C)NCCCC(=O)O[C@@H]3O[C@@H]4OCC5(C)CC6[C@H](C)CC[C@@H]([C@H]3C)[C@]64OO5)C(=O)[C@@]12C | L6 | resazurin | 0.816 µM |
| c1ccc(-c2nc(N=C3N=c4ccccc4=N3)[nH]c2-c2ccccn2)nc1 | VERO |  | 2.2 µg/mL |
| Cc1cc(Cl)c([N+](=O)[O-])c(N2CC[N+]3(CC2)CC[N+]2(CCN(c4nc(C)cc(Cl)c4[N+](=O)[O-])CC2)CC3)n1 | GMK |  | >313.3 µg/mL |
| O=Nc1c(-c2ccccc2)[nH]oc1=O | VERO |  | 1.92 µg/mL |
| Cc1cn([C@H]2C[C@H](N=[N+]=[N-])[C@@H](CO)O2)c(=O)[nH]c1=O | MM |  | >100 µM |
| [N-]=[N+]=NCc1cccc(C(=O)CC(=O)C(=O)O)c1 | H9 | XTT | 400 µM |
| CCCCCCCCCCCCCC(=O)O[C@@H]1[C@@H](C)[C@@]2(O)[C@@H](C=C(CO)C[C@]3(O)C(=O)C(C)=C[C@@H]23)[C@@H]2C(C)(C)[C@]12OC(C)=O | HB611 |  | >200 µM |
| O=C(c1ccncc1)n1nc(-c2ccccc2)c(N=Nc2nc3ccc([N+](=O)[O-])cc3s2)c1-c1ccccc1 | VERO |  | >10 µg/mL |
| COc1cc(C(=O)NC2N=C(c3ccccc3)c3ccccc3NC2=O)ccc1[N+](=O)[O-] | HEP-2 |  | 1.5 µM |
| CC(C)(C)OC(=O)NC(C(=O)O/N=C1\c2ccccc2-c2c1c(N1CCN(c3ccccn3)CC1)nc1ccc(Br)cc21)C(C)(C)C | U-937 | MTT | >20 µg/mL |
| Nc1ccn([C@H]2CC[C@@H](CO)O2)c(=O)n1 | CFU-GM |  | 10 µM |
| O=c1ccn(CCOCP(=O)(O)O)c(=O)[nH]1 | HB611 |  | >200 µM |
| Nc1ncnc2c1ncn2C[C@@H](CO)OCP(=O)(O)O | U87MG |  | 13 µg/mL |
| COC(=O)NC1N=C(c2ccccc2)c2ccccc2NC1=O | HEP-2 |  | 9.6 µM |
| Nc1cc(OCCOCP(=O)(O)O)ncn1 | CCRF-CEM |  | <10 µM |
| OC[C@H]1O[C@@H](n2cnc3c(NC4CCCCCC4)ncnc32)C[C@@H]1O | MDBK |  | 320 µM |
| CCc1cn([C@H]2C[C@H](N=[N+]=[N-])[C@@H](CO)O2)c(=O)[nH]c1=O | BFU-E |  | 5 µM |
| CO[C@H]1/C=C/O[C@@]2(C)Oc3c(C)c(O)c4c(O)c(c5[nH]cnc5c4c3C2=O)NC(=O)/C(C)=C\C=C\[C@H](C)[C@H](O)[C@@H](C)[C@@H](O)[C@@H](C)[C@H](OC(C)=O)[C@@H]1C | VERO |  | >62.5 µg/mL |
| Nc1ccnc2c1ncn2[C@@H]1O[C@H](CO)C[C@H]1O | Sheep chondrocytes G81092 | MTT | >400 µM |
| C=CCCCCCCCCC(=O)NNC(=O)c1ccncc1 | VERO |  | >62.5 µg/mL |
| O=C1C[C@@H](c2ccc(O)cc2)Oc2cc(O)c(-c3c(O)cc4c(c3O)C(=O)C[C@@H](c3ccc(O)cc3)O4)c(O)c21 | MA-104 | visual reading | ~13 µg/mL |
| Nc1nccc2c1ncn2C[C@H]1COP(=O)(O)CO1 | HB611 |  | >200 µM |
| OC[C@@H]1CC[C@H](n2cnc3c(NC4CC4)ncnc32)O1 | Sheep chondrocytes G81092 | MTT | 280 µM |
| Nc1ncnc2c1ncn2[C@@H]1O[C@H](CO)C[C@@H]1O | U138-MG |  | 42.5 µg/mL |
| c1cnc2c(c1)ccc1cccnc12 | VERO |  | <4.11 µg/mL |
| COC1=CC23CCCN2CCc2cc4c(cc2C3C1O)OCO4 | EBTR |  | >100 µM |
| OC(CCl)CN1CC[N+]2(CC1)CC[N+]1(CCN(CC(O)CCl)CC1)CC2 | K562 |  | >415.5 µg/mL |
| O=C(O)CP(=O)(O)O | HSB-2 | MTT | 51 µM |
| Nc1ncc2ncn(CCOCP(=O)(O)O)c2n1 | HB611 |  | >100 µM |
| COc1cc(OC2O[C@H](CO)[C@@H](O)[C@H](O)[C@H]2O)cc(OC)c1OC | C8166 | MTT | >200 µM |
| CN(C)CCNc1cccc2sc3ccc(O)cc3c(=O)c12 | VERO |  | 3.5 µg/mL |
| C[N+]1(C)CCN(c2cccc(N3CC[N+](C)(C)CC3)c2[N+](=O)[O-])CC1 | K562 |  | >330.4 µg/mL |
| OC[C@H]1O[C@@H](n2cnc3c(NC4CCCCCC4)nc(Cl)nc32)[C@H](O)[C@@H]1O | Sheep chondrocytes G81092 |  | 100 µM |
| C=C(C)[C@@H]1CC[C@]2(CC(=O)O)CC[C@]3(C)C(CCC4[C@@]5(C)CCC(=O)C(C)(C)C5CC[C@]43C)C12 | C8166 | MTT | 1.52 µM |
| CCCCC(=O)OC1(C)c2ccccc2-c2c1c(-n1ccnc1)nc1ccc(Br)cc21 | U-937 | MTT | >5 µg/mL |
| CCN1CCCc2cc3c(C(F)(F)F)cc(=O)oc3cc21 | VERO |  | >200 µg/mL |
| Nc1ncnc2c1ncn2CC(O)P(=O)(O)O | HB611 |  | >400 µM |
| Cc1cn([C@H]2C[C@H](N=[N+]=[N-])[C@@H](CO)O2)c(=O)[nH]c1=O | C8166 | MTT | 1370 µM |
| C[C@]12CC/C(=N/NC(=O)c3ccncc3)C[C@@H]1CC[C@@H]1[C@@H]2CC[C@]2(C)[C@@H](O)CC[C@@H]12 | VERO |  | >10 µg/mL |
| CCCCCCC(=O)OC1(C)c2ccccc2-c2c1c(-n1ccnc1)nc1ccc(Br)cc21 | U-937 | MTT | >20 µg/mL |
| O=c1[nH]cnc2c1ncn2[C@H]1CC[C@@H](CO)O1 | HELA-CD4+ |  | 1.8 µM |
| COC(=O)[C@H]1[C@H](O)[C@H](C)[C@@H](O)[C@@H](C)/C=C(\C)C2=C3C(=C(C)C(=O)c4c(O)c(c(C)c(OC(C)=O)c43)NC(=O)/C(C)=C/C=C\[C@@H](C)C(O)[C@@H](C)[C@H]1O)OCO2 | VERO |  | 59.4 µg/mL |
| COc1cc2c(c3oc(=O)c4c(c13)CCC4=O)C1C=COC1O2 | L-02 |  | 3.7 µM |
| O=C1C(=O)c2c(nc3ccccn23)-c2ccccc21 | VERO |  | >62.5 µg/mL |
| COc1ccc(-c2cc(=O)c3c(OC)cc(OC)c([C@H]4C(=O)c5c(OC)cc(OC)cc5O[C@@H]4c4ccc(OC)cc4)c3o2)cc1 | MA-104 | visual reading | ~15 µg/mL |
| NNC(=O)CCC(NC(=O)OCc1ccccc1)C(=O)NN | VERO |  | 7.01 µg/mL |
| Nc1ncnc2c1ncn2[C@@H]1O[C@H](CO)[C@@H](O)[C@@H]1O | CBMC | MTT | 78 µM |